Compound potency records, mixed from different reports. Data source: NIAID ChemDB in PubChem.

All rows: toxicity to cultured cells; read-out: CC50

a–b is a range or a potency band.

compound,method,cell line,value
NS(=O)(=O)c1cc([N+](=O)[O-])c(N2COC2)c([N+](=O)[O-])c1,-,MDCK cells,25.5 µM
C#CCCC[C@@H]1OC(=O)CNC(=O)[C@H]([C@@H](C)CC)NC(=O)[C@@H]2CCCN2C(=O)[C@H]([C@@H](C)CC)OC(=O)[C@H](Cc2ccccc2)NC(=O)[C@H](C(C)C)NC(=O)C1(C)C,MTT,HT-29,>100 µM
CO[C@H]1O[C@@H](n2ccc(=O)[nH]c2=O)C[C@@H]1N=[N+]=[N-],-,HepG2.2.15,338 µM
[N-]=[N+]=Nc1ccc(CNc2ncnc3c2ncn3[C@H]2CC[C@@H](CO)O2)cc1,MTT,Human fibroblasts,>5 µM
CCOC(=O)c1ccc2c(c1)nc(-c1ccc3c(c1)OCO3)n2CCN1CCCOC1,MTT,Vero cell,>62.5 µg/mL
CC(=O)O[C@H]1C(=O)[C@@]2(C)[C@H]([C@H](OC(=O)c3ccccc3)[C@]3(O)C[C@H](OC(=O)[C@H](O)[C@@H](NC(=O)c4ccccc4)c4ccccc4)C(C)=C1C3(C)C)[C@]1(OC(C)=O)CO[C@@H]1C[C@@H]2O,MTT,MCF-7,0.006 µM
CC1=C(C)[C@](CO)(c2ccccc2)C[C@H]1n1cnc2c(N)ncnc21,-,HEL 299,>100 µg/mL
COC(=O)c1cc([N+](=O)[O-])c(N2CCN(C)CC2)c([N+](=O)[O-])c1,-,MDCK cells,157 µM
CC1=C(C)C(CO)(CO)C[C@H]1n1ccc(N)nc1=O,-,HEL 299,>100 µg/mL
COCCN(CCOC)c1c([N+](=O)[O-])cc(C(F)(F)F)cc1[N+](=O)[O-],-,MDCK cells,139.9 µM
CCOC(=O)c1ccc2nc(-c3ccc(Br)cc3)[nH]c2c1,MTT,Vero cell,>62.5 µg/mL
CN1C[C@H](O)[C@H](O)[C@H]1CO,-,Karpas 45 cells,>100 µg/mL
CC(=O)N(C)[C@H]1C[C@@]23CC[C@@]4(O2)C(=CC[C@]2(C)C(c5ccc6ccncc6c5)=CC[C@H]24)C=C3[C@@H](O)[C@@H]1O,ATP,HUVEC,>1 µM
CN(C)C(=S)Oc1ccc(Cl)cc1C(=O)Nc1ccc(C(F)(F)F)cc1,MTT,HepG2 cell,67.29 µM
C=CCCC[C@@H]1OC(=O)CNC(=O)[C@H]([C@@H](C)CC)NC(=O)[C@@H]2CCCN2C(=O)[C@H]([C@@H](C)CC)OC(=O)[C@H](Cc2ccccc2)N(C)C(=O)[C@H](C(C)C)NC(=O)C1(C)C,MTT,HT-29,13 µM
O=C(Nc1ccc(Cl)cc1)c1cc(Cl)ccc1OC(=O)N(c1ccccc1)c1ccccc1,MTT,HepG2 cell,>100 µM
O=C(Nc1ncnc2c1ncn2[C@H]1CC[C@@H](CO)O1)c1ccccc1,MTT,Human fibroblasts,<5 µM
OC[C@H](O)[C@@H]1[C@H](O)[C@@H](O)CN1Cc1ccccc1,-,Karpas 45 cells,>100 µg/mL
CC(=O)Oc1ccc([C@@H]2CC(=O)c3c(cc(OC(C)=O)c(-c4c(OC(C)=O)cc5c(c4OC(C)=O)C(=O)C[C@@H](c4ccc(OC(C)=O)cc4)O5)c3OC(C)=O)O2)cc1,visual reading,BSC-1,<4 µg/mL
Nc1nc2c(ncn2[C@H]2CC[C@@H](CO)O2)c(=O)[nH]1,-,HepG2.2.15,197 µM
O=C(Nc1ccccc1)c1ccccc1OC(=O)N(c1ccccc1)c1ccccc1,MTT,HepG2 cell,211.1 µM
C[C@]12CC=C3C=C4[C@@H](O)[C@H](O)[C@@H](N)C[C@]45CC[C@]3(O5)[C@@H]1CC=C2c1ccc2ccncc2c1,ATP,HUVEC,0.1–1 µM
CCOC(=O)c1ccc2c(c1)nc(-c1ccc(Cl)cc1)n2CCN1CCCOC1,MTT,Vero cell,>62.5 µg/mL
CN(C)[C@H]1C[C@@]23CC[C@@]4(O2)C(=CC[C@]2(C)C(c5ccc6ncncc6c5)=CC[C@H]24)C=C3[C@@H](O)[C@@H]1O,ATP,HUVEC,<0.1 µM
CCCN(CCC)c1c([N+](=O)[O-])cc(C(=O)NC)cc1[N+](=O)[O-],-,MDCK cells,96 µM
C[C@@H]1NC[C@@H](O)[C@H](O)[C@@H]1O,-,Karpas 45 cells,>150 µg/mL
CCOC(=O)c1ccc2nc(-c3ccc([N+](=O)[O-])cc3)[nH]c2c1,MTT,Vero cell,>62.5 µg/mL
CN1C[C@H](O)[C@H](O)[C@@H](O)[C@@H]1CO,-,Karpas 45 cells,>500 µg/mL
O=c1[nH]c(=O)n([C@@H]2O[C@H](CO)[C@@H](O)[C@@H]2F)cc1I,-,HepG2.2.15,212 µM
NS(=O)(=O)c1cc([N+](=O)[O-])c(N2CCCCC2)c([N+](=O)[O-])c1,-,MDCK cells,>80 µM
C[C@@H]1NC(=O)[C@@H](O)[C@H](O)[C@@H]1O,-,Karpas 45 cells,>100 µg/mL
CCOC(=O)c1ccc2c(c1)nc(-c1ccc([N+](=O)[O-])cc1)n2CCN1CCCOC1,MTT,Vero cell,>62.5 µg/mL
Nc1ccn([C@H]2CC[C@@H](CO)O2)c(=O)n1,-,HepG2.2.15,168 µM
CN(C(=O)Oc1ccc(Cl)cc1C(=O)Nc1ccc(F)cc1)c1ccccc1,MTT,HepG2 cell,512 µM
COc1ccc(C(=O)Nc2ncnc3c2ncn3[C@H]2CC[C@@H](CO)O2)cc1,MTT,Human fibroblasts,>5 µM
Nc1nc(=O)n([C@@H]2O[C@H](CO)[C@@H](O)[C@@H]2F)cc1I,-,HepG2.2.15,207 µM
COc1ccc2c(c1)C(OC(C)C)=C(C(N)=O)S2=O,thymidine uptake / radiometric,OM-10.1,>10 µM
CCOC(=O)c1ccc2c(c1)nc(-c1ccc(C(F)(F)F)cc1)n2CCN1CCCC1=O,MTT,Vero cell,>62.5 µg/mL
O=c1cc(-c2ccc(Oc3c(O)cc4oc(-c5ccc(O)cc5)cc(=O)c4c3O)cc2)oc2cc(O)cc(O)c12,neutral red,MDCK,2.2 µg/mL
OC[C@@H](O)[C@@H]1NC[C@H](O)[C@H]1O,-,Karpas 45 cells,>50 µg/mL
O=c1ccn([C@H]2C[C@H](F)[C@@H](CO)O2)c(=O)[nH]1,-,HepG2.2.15,338 µM
CCOC(=O)c1ccc2c(c1)nc(-c1ccccc1)n2CCN1CCCOC1,MTT,Vero cell,>62.5 µg/mL
OC[C@@H]1NC[C@@H](O)[C@H]1O,-,Karpas 45 cells,>130 µg/mL
O=C1C[C@@H](c2ccc(O)cc2)Oc2cc(O)c(-c3c(O)cc4c(c3O)C(=O)C[C@@H](c3ccc(O)cc3)O4)c(O)c21,visual reading,MA-104,~22 µg/mL
O=c1c(O)c(-c2ccc(O)c(O)c2)oc2cc(O)cc(O)c12,-,BCC-1/KMC,496.9 µg/mL
CN(C)[C@H]1C[C@@]23CC[C@@]4(O2)C(=CC[C@]2(C)C(c5cccc6cnccc56)=CC[C@H]24)C=C3[C@@H](O)[C@@H]1O,ATP,HUVEC,>1 µM

Repeating the first 5 entries:

compound | method | cell line | value
NS(=O)(=O)c1cc([N+](=O)[O-])c(N2COC2)c([N+](=O)[O-])c1 | - | MDCK cells | 25.5 µM
C#CCCC[C@@H]1OC(=O)CNC(=O)[C@H]([C@@H](C)CC)NC(=O)[C@@H]2CCCN2C(=O)[C@H]([C@@H](C)CC)OC(=O)[C@H](Cc2ccccc2)NC(=O)[C@H](C(C)C)NC(=O)C1(C)C | MTT | HT-29 | >100 µM
CO[C@H]1O[C@@H](n2ccc(=O)[nH]c2=O)C[C@@H]1N=[N+]=[N-] | - | HepG2.2.15 | 338 µM
[N-]=[N+]=Nc1ccc(CNc2ncnc3c2ncn3[C@H]2CC[C@@H](CO)O2)cc1 | MTT | Human fibroblasts | >5 µM
CCOC(=O)c1ccc2c(c1)nc(-c1ccc3c(c1)OCO3)n2CCN1CCCOC1 | MTT | Vero cell | >62.5 µg/mL

Blank or dashed fields: not listed here. Lines come from different laboratories, so protocols vary. CCn: concentration that lowers growth or viability of the cells by n%.